Experimental data reported in US20050124645A1, “Methods and compositions for increasing CD4lymphocyte immune responsiveness” (priority 1998, published 2005).
“Also recorded” adds a separate entry of the source.

Key:
HIV LTR = HIV LTR driven luciferase in HeLa cells transfected with IL-2 receptor chains and JAK3; format: cell-based; details: with or without Nef vector, presence or absence of IL-2, FIG. 12E
Source text: HeLa cells were also transfected with vectors containing an HIV LTR driven luciferase, IL-2 receptor chains and JAK3. The cells were also transfected with a vector with or without Nef and cultured in the presence or absence of IL-2. […] Therefore, Nef alone is sufficient to alter LTR activity.

IL-2R (α-chain, CD25) = assay: Activation-induced IL-2R (CD25) expression on CD4 primed T cells by flow cytometry; format: cell-based, human; details: 20 U/ml cytokine; 24 hours; FIGS. 2A, 2B
Protocol: Expression of high affinity IL-2R (CD25) was also analyzed in CD4 primed T cells. To determine the expression of IL-2R (α-chain, CD25), the culture plates were set up as described in Example 1 and incubated at 37° C. for 24 hours. 2×10^5 cells were stained with FITC-conjugated anti-CD25 mAb (Pharmingen) and analyzed by flow cytometry (Coulter XL).

JAK3 [1] = assay: JAK3 expression and tyrosine phosphorylation (immunoprecipitation/Western blot) in TCR/CD3-stimulated CD4+ T cells with or without prior CD4 ligation; format: cell-based, human; details: 20 U/ml cytokine; FIG. 4
Protocol: In this experiment, the present inventors determined the activation status of JAK3 in CD4^+ T cells which were activated through the TCR subsequent to CD4 ligation.
Briefly, the purified CD4^+ T cells were incubated with or without gp120 and anti-gp120 antibody or anti-CD4 for 1 hour at 37° C. 3×10^6 cells per well were incubated at 37° C. in an anti-CD3 mAb coated (anti-CD3, OKT3, 50 μg/ml, ATCC) 12-well plate. Cells were harvested after various times and lysed in Tris-buffered saline (TBS) containing 1% NP-40, phosphatase inhibitors and protease inhibitors. […] The proteins were transferred to nitrocellulose membrane and immunoblotted with antiphosphotyrosine mAb (anti-P-Tyr, Ab-2, Oncogene Science) Positive protein bands were detected with horseradish peroxidase (HRP)-conjugated goat anti-mouse IgG (Jackson ImmunoResearch) and SuperSignal Substrate (SSS, Pierce). […]
In some experiments, 1.5×10^6 cell equivalents of post-nuclear lysate were boiled with sample buffer and separated by 7.5% SDS-PAGE. Nitrocellulose membrane was immunoblotted with (anti-JAK3 and then stripped and immunoblotted with anti-actin mAb (anti-actin, Sigma), as described above. Optical density (O.D.) of positive bands was measured with the Stratagene Eagle Eye II. […]

HIV-1 LTR = assay: HIV-1 LTR-luciferase activity in resting CD4+ T cells; format: cell-based; details: FIG. 17
Source text: Resting CD4^+ T cells were transfected with a construct containing luciferase under the control of HIV-1 LTR or a control luciferase construct (Dual-luciferase© Reporter Assay System, Promega, Madison, Wis.). The cells were also optionally transfected with an expression vector encoding STAT5. […] The luciferase activity of the cellular lysates was subsequently measured.

[2] = tested on: CD4+ T cells from HIV seropositive individuals; details: in vitro; Adachi et al. 1996; cited from earlier work
JAK3 [3] = assay: JAK3 kinase activity (phosphorylation of STAT5) in peripheral blood T cells of an HIV-infected patient; format: cell-based, human; details: anti-CD3 stimulation; rIL-2 20 U/ml; FIG. 10
Protocol: Peripheral blood T cells isolated 5 from a healthy, non-infected donor served as a control. 0.5×10^6 cells per-well (24 well culture plate) were incubated at 37° C. in an anti-CD3 mAb coated (anti-CD3, OKT3, 10 μg/ml) plate for in the presence and absence of rIL-2 (20 U/ml). Cells were harvested at the designated times and Western blots using anti-JAK3, anti-actin, or anti phosphoSTAT5 (pSTAT5) were prepared as described in Example 3.

[4] = tested on: purified human CD4+ T cells; assay: Anti-TCR induced proliferation ([3H]-thymidine) of CD4-ligated purified CD4+ T cells, rescue by cytokines; format: cell-based
Protocol: Heparinized venous blood from healthy adult human donors was separated on a Ficoll-Paque (Pharmacia Biotech) gradient to obtain lymphocytes. CD4^+ T cells were isolated by incubation with anti-CD8 mAb (OKT8, 20 Ag/ml, ATCC), followed by negative selection on goat anti-mouse IgG coated Immulan beads (Biotecx Laboratories).
Specifically, the purified CD4^+ T cells in balanced salts solution were incubated with or without gp120 (rgp120SF2, 10 μg/ml) and crosslinked with anti-gp120 antibody (1:250 dilution) or anti-CD4 mAb (anti-CD4, Leu-3α, 20 μg/ml) for 1 hr at 37° C.
Proliferation in response to plate-bound anti-TCR was determined as follows. Cells were washed, resuspended in RPMI-1640 culture media (GIBCO) supplemented with 10% fetal bovine serum (FBS, Gemini BioProducts) and 1×10^5 cells were added to triplicate wells of an anti-T cell receptor monoclonal antibody-coated (anti-TCR, BMA-031, 50 μg/ml) 96-well plate (Becton Dickinson). […] Culture plates were incubated for 3 days at 37° C. with 1 μCi/Well [^3H]-thymidine (NEN) present during the final 5 hours of culture. The cells were harvested and processed to determine ^3H-thymidine incorporation.

JAK3 [5] = assay: JAK3 expression (Western blot) in mock- or HIV-1 NL4-3-infected CD4+ T cell PHA blasts; format: cell-based, human; details: mock-infected and HIV infected cultures; 20 U/ml; 48 hours; FIGS. 8A, 8B
Protocol: In this experiment, purified human CD4^+ T cells isolated as described above and activated with PHA for 3 days were infected for 4 days with a laboratory cloned strain of HIV-1, NL4-3. […] After the infection period, 0.5×10^6 cells per well were incubated at 37° C. in an anti-CD3 mAb coated (anti-CD3, OKT3, 10 μg/ml) plate for 48 hours in the presence of 20 U/ml recombinant IL-2 or IL-7. Cells were harvested and lysed with TBS/1% NP40 and analyzed on 7.5% SDS PAGE. Western blots using anti-JAK3 or anti-actin were prepared as described in Example 3.

Substance: IL-2: cytokine which binds to receptors on T cells having γc; recombinant, R&D Systems
- HIV LTR activity (luciferase) (HIV LTR): significant increase in activity
- activation-induced CD25 expression on CD4 primed T cells (IL-2R (α-chain, CD25)): restored activation-induced CD25 expression
- reversal of gp120 or anti-CD4 induced inhibition of JAK3 expression and activation (JAK3 [1]): completely reversed
- activity from the HIV-1 LTR (luciferase activity), IL-2 in combination with STAT5 (HIV-1 LTR; IL-2 plus STAT5 expression vector): decreased the activity
- activity from the HIV-1 LTR (luciferase activity) (HIV-1 LTR; STAT5 expression vector or IL-2 for 1 hour): did not further increase
- apoptosis of CD4+ T cells [2]: prevents apoptosis
- JAK3 kinase activity (phosphorylation of STAT5) in T lymphocytes of HIV-infected patient (JAK3 [3]): restored the JAK3 kinase activity; also recorded: restores JAK3 kinase activity
- anti-TCR induced proliferative response of CD4-ligated T cells ([4]; 20 U/ml cytokine, gp120 or anti-CD4 ligation before plate-bound anti-TCR, 3 days, FIG. 1): restored the proliferative response
- rescue of CD4 primed T cells by late cytokine addition ([4]; added after 24 hrs of activation, data not shown): failed to rescue
- JAK3 expression in unstimulated T cells (JAK3 [5]): significant increase
